Pooled drug test results. Numbers come from NIAID ChemDB, via PubChem.

Common to all: target-level tests

Rows are shuffled and stem from different studies. An empty or dashed field is not shown. Two numbers with a dash give a range or band. Percent inhibition refers to the dose given; in toxicity tests it is the harm to the cells. Fold resistance: result on the changed form divided by that on wild type. ICn is the concentration giving n% inhibition.

structure | read by | dose | strain or isolate | changes | target | organism | endpoint | value
Nc1nc2c(ncn2[C@H]2CO[C@@H](COP(=O)(O)OP(=O)(O)OP(=O)(O)O)O2)c(=O)[nH]1 | radiometric | - | - | RT-M184V | Reverse transcriptase | HIV | fold resistance | 1.2
CC(C)[C@H](NC(=O)[C@@H]1CCCN1C(=O)[C@@H](O)[C@H](Cc1ccccc1)NC(=O)OC(C)(C)C)C(=O)OC1CCCCC1 | - | 1000 µM | - | - | Protease | HIV-1 | inhibition | 36.1%
CC[C@H](C)[C@H](N)C(=O)N[C@@H](CC(N)=O)C(=O)N[C@@H](CC(N)=O)C(=O)N[C@H](C(=O)N1CCC[C@H]1C(=O)N[C@@H](Cc1c[nH]c2ccccc12)C(=O)N[C@@H](CO)C(=O)O)[C@@H](C)CC | ELISA | - | SF2 | - | gp120 | HIV-1 | IC50 | 12 µM
CC(C)(C)c1ccc(-n2nnnc2SCC(=O)Nc2ccc(C(=O)Nc3ccncc3)cc2Cl)c(Cl)c1 | PicoGreen / fluorescence | - | WT | - | Reverse transcriptase | HIV-1 | IC50 | <1 µM
NC[C@H]1O[C@H](O[C@H]2[C@H](O[C@@H]3O[C@H](CO)[C@@H](O)[C@H]3O)[C@@H](O)[C@H](N)C[C@@H]2N)[C@H](N)[C@@H](O)[C@@H]1O | gel | 100 µM | - | - | Rev:RRE | HIV-1 | inhibition | 100%
CCN1c2ncc(CCOc3ccc(CCC(=O)O)c4ccccc34)cc2C(=O)Nc2c(C)cc(F)nc21 | nucleotide incorporation / radiometric | - | - | RT-V106A | Reverse transcriptase | HIV-1 | IC50 | 0.1–1 µM
Nc1nc2c(ncn2[C@H]2CC[C@@H](COP(=O)(O)OP(=O)(O)OP(=O)(O)O)O2)c(=O)[nH]1 | - | - | - | RT-L74V T215Y | Reverse transcriptase | HIV | fold resistance | 7.14
CC(C)(C)NC(=O)[C@@H]1CCCN1C(=O)[C@@H](O)[C@H](CC1CCCCC1)NC(=O)[C@H](CS(C)(=O)=O)NC(=O)OCc1cccc2ccccc12 | - | 5 µM | - | - | Protease | HIV-1 | inhibition | 98.5%
CSCC[C@H](NC(=O)[C@@H]1CCCN1C(=O)[C@H](Cc1cnc[nH]1)NC(=O)[C@H](Cc1c[nH]c2ccccc12)NC(=O)[C@@H](N)Cc1ccccc1)C(=O)N[C@@H](Cc1cnc[nH]1)C(=O)N[C@@H](CC(=O)O)C(=O)O | ELISA | - | ADA | - | gp120 | HIV-1 | IC50 | >500 µM
Nc1ncnc2c1ncn2[C@H]1CC[C@@H](COP(=O)(O)OP(=O)(O)OP(=O)(O)O)O1 | - | - | - | RT-L74V | Reverse transcriptase | HIV | Ki | 18 µM
COC(=O)c1cc(C)n(-c2ccc(C(=O)O)c(O)c2)c1-c1ccccc1 | fluorescence | - | - | - | gp41 | HIV-1 | IC50 | 500 µg/mL
CC(C)(C)c1ccc(-n2nnnc2SCC(=O)Nc2ccc(OCC(=O)NCc3ccc(O)c(O)c3)cc2Cl)c(Cl)c1 | PicoGreen / fluorescence | - | - | RT-K103 Y181C | Reverse transcriptase | HIV-1 | IC50 | <1 µM
N[C@@H](Cc1ccccc1)C(=O)N[C@@H](CO)C(=O)N[C@@H](Cc1ccccc1)[C@H](O)C(=O)NCC1CCCCC1 | - | 1000 µM | - | - | Protease | HIV-1 | inhibition | 76.2%
NC[C@@H]1O[C@H](O[C@H]2[C@@H](O)[C@H](O[C@@H]3[C@@H](O)[C@H](N)C[C@H](N)[C@H]3O[C@H]3O[C@H](CN)[C@@H](O)[C@H](O)[C@H]3N)O[C@@H]2CO)[C@H](N)[C@@H](O)[C@@H]1O | scintillation proximity / radiometric | - | - | - | Rev:RRE | HIV-1 | IC50 | 6 µM
Cc1cc(C(F)(F)F)cc(-n2nnnc2SCC(=O)Nc2ccc(-c3ccc(CC(=O)O)cc3)cc2Cl)c1Cl | PicoGreen / fluorescence | - | WT | - | Reverse transcriptase | HIV-1 | IC50 | <1 µM
NC(=O)c1ccn2c1CS[C@@H]2c1cccnc1 | - | 100 µM | - | - | Tat:TAR/LTR | HIV-1 | inhibition | ~39%
O=C(CSc1nnnn1-c1ccc(C2CC2)cc1Cl)Nc1ccc(S(=O)(=O)Nc2ccncc2)cc1Cl | PicoGreen / fluorescence | - | - | RT-K103 Y181C | Reverse transcriptase | HIV-1 | IC50 | <1 µM
CC(C)=CCC/C(C)=C/CC/C(C)=C/CC/C(C)=C/CC/C(C)=C/CC/C(C)=C/Cc1cc(O)ccc1O | nucleotide incorporation | - | - | - | Reverse transcriptase | HIV-2 | IC90 | 4.3 µM
O=C(CSc1nnnn1-c1ccc(C2CC2)cc1Cl)Nc1ccc(C#CC2(CNCCN3CCCC3)CC2)cc1Cl | PicoGreen / fluorescence | - | WT | - | Reverse transcriptase | HIV-1 | IC50 | <1 µM
O=C1O[C@H]2[C@@H]3OC(=O)c4cc(O)c(O)c(O)c4-c4c(cc(O)c(O)c4O)C(=O)OC[C@H]2O[C@@H](OC(=O)c2cc(O)c(O)c(O)c2)[C@@H]3OC(=O)c2cc(O)c(O)c3c2[C@@H]2C1=CC(=O)[C@](O)(O3)C2(O)O | ELISA | - | - | - | gp120 + CD4 | HIV-1 | IC50 | 0.48 µg/mL
CC[C@@H](C)[C@H](NC(=O)[C@@H]1CCCN1C(=O)[C@@H](O)[C@H](Cc1ccccc1)NC(=O)[C@H](CC(N)=O)NC(=O)CCc1ccccc1)C(=O)NCC1CCCCC1 | - | 5 µM | - | - | Protease | HIV-1 | inhibition | 86.8%
O=C1C(=Cc2ccc(-c3cc(Cl)ccc3Cl)o2)SC(=S)N1C1CCS(=O)(=O)C1 | scintillation proximity / radiometric | - | - | - | Rev:RRE | HIV-1 | IC50 | 10 µM
NC(=O)C[C@H](NC(=O)OCc1ccccc1)C(=O)N[C@@H](Cc1ccccc1)[C@H](O)C(=O)N1CCC[C@H]1C(=O)N1CC1 | - | 5 µM | - | - | Protease | HIV-1 | inhibition | >90%
NS(=O)(=O)c1ccc(-c2ccc(/C=C3/SC(=S)N(CCC(=O)O)C3=O)o2)cc1 | scintillation proximity / radiometric | - | - | - | Rev:RRE | HIV-1 | IC50 | 90 µM
CC[C@H]1OC(=O)[C@H](C)[C@@H](O[C@H]2C[C@@](C)(OC)[C@@H](O)[C@H](C)O2)[C@H](C)[C@@H](O[C@@H]2O[C@H](C)C[C@H](N(C)C)[C@H]2O)[C@](C)(O)C[C@@H](C)C(=O)[C@H](C)[C@@H](O)[C@]1(C)O | gel | 100 µM | - | - | Rev:RRE | HIV-1 | inhibition | 0%
COC(=O)c1ccc(-c2ccc(NC(=O)CSc3nnnn3-c3ccc(C)cc3Cl)c(Cl)c2)cc1 | PicoGreen / fluorescence | - | WT | - | Reverse transcriptase | HIV-1 | IC50 | <1 µM
CC(C)(CS(=O)(=O)[O-])[NH2+]C(=O)C(CC(F)(OC(F)(F)C(F)(OC(F)(F)C(F)(OC(F)(F)C(F)(F)C(F)(F)F)C(F)(F)F)C(F)(F)F)C(F)(F)F)C(F)(OC(F)(F)C(F)(OC(F)(F)C(F)(OC(F)(F)C(F)(F)C(F)(F)F)C(F)(F)F)C(F)(F)F)C(F)(F)F | ELISA | 0.8 µg/mL | - | - | gp120 | HIV-1 | inhibition | 60%
O=C(CN1CCCC1)Nc1ccc(Cc2ccc(NC(=O)CN3CCCC3)cc2)cc1 | binding | - | - | - | Integrase | HIV | IC50 | 7.29 µM
CC(C)(C#Cc1ccc(NC(=O)CSc2nnnn2-c2ccc(C(C)(C)C)cc2Cl)c(Cl)c1)C(=O)NCCN1CCOCC1 | PicoGreen / fluorescence | - | - | RT-K103 Y181C | Reverse transcriptase | HIV-1 | IC50 | <1 µM
O=C(/C=C/C1=CC2C=Cc3cc(O)c(O)cc3OC2C(O)=C1)OC(Cc1ccc(O)c(O)c1)C(=O)O | ELISA | - | - | - | Integrase | HIV | IC50 | 1.78–18.5 µg/mL
C=CC(C)(C)c1[nH]c2ccccc2c1C1=C(O)C(=O)C(c2c(C(C)(C)C=C)[nH]c3ccccc23)=C(O)C1=O | - | - | - | PR-V82T | Protease | HIV | Ki | 1.25 µM
COc1ccc(S(=O)(=O)O)cc1N=Nc1c(S(=O)(=O)O)cc2cc(Nc3nc(Nc4ccccc4)nc(Nc4cc(C)c(N=Nc5cc(S(=O)(=O)O)cc6cc(S(=O)(=O)O)cc(O)c56)cc4OC)n3)ccc2c1O | ELISA | - | IIIB | - | gp41 | HIV-1 | IC50 | 0.73 µg/mL
Fc1ccc(Nc2ccnc(-c3ccncc3)n2)cc1F | AlphaScreen / luminescence | - | - | - | Capsid | HIV-1 | IC50 | 21 µM
Nc1ccn([C@H]2CC[C@@H](COP(=O)(O)OP(=O)(O)OP(=O)(O)O)O2)c(=O)n1 | nucleotide incorporation / radiometric | - | - | RT-Y188L | Reverse transcriptase | HIV | fold resistance | 1.22
COCCNC(=O)[C@@H](NC(=O)[C@H](Cc1ccc(OC)c(OC)c1OC)C[C@H](O)[C@H](Cc1ccccc1)NC(=O)OC(C)(C)C)C(C)C | fluorescence | - | - | - | Protease | HIV-2 | IC50 | 0.005 µM
O=C(O)c1ccccc1/C=C/c1cc(F)cc(/C=C/C2C=CC=CC2)c1 | scintillation proximity / radiometric | - | - | - | Rev:RRE | HIV-1 | IC50 | 5.2 µM
CCOC(=O)/C=C/n1ncnc1-c1cc(Cl)ccc1N | luciferase | - | - | - | Rev:RRE | HIV-1 | IC50 | 1.98 µM
CCN1c2ncc(CCOc3ccc(CC(=O)O)c4ccccc34)cc2C(=O)N(C)c2cccnc21 | nucleotide incorporation / radiometric | - | - | RT-Y188L | Reverse transcriptase | HIV-1 | IC50 | >1 µM
Cc1cc(C(=O)c2ccccc2)c(C)n1-c1ccc(C(=O)O)c(O)c1 | fluorescence | - | - | - | gp41 | HIV-1 | IC50 | 500 µg/mL
CCN(CC)CCOc1ccc(-c2ccc(NC(=O)CSc3nnnn3-c3ccc(C(C)(C)C)cc3Cl)c(Cl)c2)cc1 | PicoGreen / fluorescence | - | WT | - | Reverse transcriptase | HIV-1 | IC50 | <1 µM
N[C@H]1[C@@H](O[C@H]2[C@H](O)[C@@H](O)[C@H](N)C[C@@H]2N)O[C@H](CNC(=O)c2ccc3ccc4cccc5ccc2c3c45)[C@@H](O)[C@@H]1O | fluorescence | - | - | - | Rev:RRE | HIV-1 | Ki | 0.24 µM
O=C(Nc1ccc(-c2nc3ccc(NC(=O)c4ccccc4)cc3[nH]2)cc1)c1ccccc1 | scintillation proximity / radiometric | - | - | - | Rev:RRE | HIV-1 | IC50 | >90 µM
CC(C)(C)NC(=O)[C@@H]1CSCN1C(=O)[C@@H](O)[C@H](Cc1ccccc1)NC(=O)[C@@H](NC(=O)COc1cccc2ccccc12)C(C)(C)S(C)(=O)=O | - | 0.05 µM | - | - | Protease | HIV-1 | inhibition | 92.7%
O=C(CSc1nnnn1-c1ccc(C2CC2)cc1Cl)Nc1ccc(C(=O)NS(=O)(=O)c2ccccc2)cc1Cl | PicoGreen / fluorescence | - | - | RT-K103 Y181C | Reverse transcriptase | HIV-1 | IC50 | <1 µM
O=C(O)CCN1C(=O)/C(=C\c2ccc(-c3ccccc3Cl)o2)SC1=S | scintillation proximity / radiometric | - | - | - | Rev:RRE | HIV-1 | IC50 | 90 µM
Cc1ccc(-c2c(OCC(=O)Nc3ccc(C#CC(C)(C)C(=O)O)cc3Cl)n[nH]c2C)c(Cl)c1 | PicoGreen / fluorescence | - | - | RT-K103 Y181C | Reverse transcriptase | HIV-1 | IC50 | <1 µM
Cc1cc(C(=O)c2ccccc2)c(-c2ccccc2)n1-c1ccc(C(=O)O)c(O)c1 | fluorescence | - | - | - | gp41 | HIV-1 | IC50 | 41.1 µg/mL
CC(C)[C@H](NC(=O)COc1cccc2cnccc12)C(=O)N[C@@H](Cc1ccccc1)[C@H](O)C(=O)N1CSC[C@H]1C(=O)NC(C)(C)C | - | 0.05 µM | - | - | Protease | HIV-1 | inhibition | 88.5%
CCN1c2ncc(CCOc3ccc4cc(C(=O)NC(C)(C)C(=O)O)ccc4c3)cc2C(=O)N(C)c2cccnc21 | nucleotide incorporation / radiometric | - | - | RT-V106A | Reverse transcriptase | HIV-1 | fold resistance | 1–10
CN(C)CCCN=C(N)c1ccc(C(N)=NCCCN(C)C)cc1 | nucleotide incorporation / radiometric | - | - | RT-Y188L | Reverse transcriptase | HIV | Ki | 44 µM
CC(C)(C#Cc1ccc(NC(=O)CSc2nnnn2-c2ccc(C3CC3)cc2Cl)c(Cl)c1)NC(=O)OC(C)(C)C | PicoGreen / fluorescence | - | - | RT-K103 Y181C | Reverse transcriptase | HIV-1 | IC50 | <1 µM
O=C(O)c1ccc2c(c1)C(=O)N(c1ccc(-c3cc(-c4ccc(N5C(=O)c6ccc(C(=O)O)cc6C5=O)cc4)nc(-c4ccccc4)n3)cc1)C2=O | scintillation proximity / radiometric | - | - | - | Rev:RRE | HIV-1 | IC50 | 0.5 µM
CC(C)(C)c1ccc(-n2nnnc2SCC(=O)Nc2ccc(OCC(=O)NCCc3ccc(O)c(O)c3)cc2Cl)c(Cl)c1 | PicoGreen / fluorescence | - | WT | - | Reverse transcriptase | HIV-1 | IC50 | <1 µM
CCN1c2ncc(CCOc3ccc(CC(=O)O)c4c3CCCC4)cc2C(=O)N(C)c2ccc(F)nc21 | nucleotide incorporation / radiometric | - | - | RT-V106A | Reverse transcriptase | HIV-1 | fold resistance | >10
CC(C)(C#Cc1ccc(NC(=O)CSc2nnnn2-c2ccccc2Cl)c(Cl)c1)C(=O)O | PicoGreen / fluorescence | - | - | RT-K103 Y181C | Reverse transcriptase | HIV-1 | IC50 | <1 µM
CCN1c2ncc(CCOc3ccc(C(=O)O)c4c3CCCC4)cc2C(=O)N(C)c2ccc(OC)nc21 | nucleotide incorporation / radiometric | - | - | RT-K103N Y181C | Reverse transcriptase | HIV-1 | fold resistance | 1–10
COCOC[C@@]12[C@H](O)C[C@@H](C)[C@]3(C[C@@H](c4ccoc4)OC3=O)[C@H]1CCC(=O)[C@]21CO1 | RNase H / fluorescence | 100 µM | - | - | RNase H | HIV-1 | inhibition | 20%
CN(C)CC(=O)NC(C)(C)C#Cc1ccc(NC(=O)CSc2nnnn2-c2cc(C(F)(F)F)ccc2Cl)c(Cl)c1F | PicoGreen / fluorescence | - | - | RT-K103 Y181C | Reverse transcriptase | HIV-1 | IC50 | <1 µM